The values below come from paper PMC7032734, “Predicting nitroimidazole antibiotic resistance mutations in Mycobacterium tuberculosis with protein engineering” (2020).

Amino acid sequences for entries named in this document (tags omitted). A change or cut given only in a name is not applied to a line headed by its entry.
UniProt P9WP15: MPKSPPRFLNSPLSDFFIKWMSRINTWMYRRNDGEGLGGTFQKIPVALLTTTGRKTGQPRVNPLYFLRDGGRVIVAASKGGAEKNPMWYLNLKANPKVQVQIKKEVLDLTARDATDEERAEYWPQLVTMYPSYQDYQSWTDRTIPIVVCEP

One may read the Km as the substrate concentration at which the rate is half of its maximum.

The assay addresses Ddn (Mycobacterium tuberculosis, UniProt P9WP15). Description: F420H2 oxidation, absorbance at […] nm. The conditions noted are these: F420H2 25 μM, 200 mM Tris-HCl pH 7.5, 0.1% Triton X-100, room temperature.

With `CC(C)=CCC1=C(C)C(=O)c2ccccc2C1=O`, the Michaelis constant (Km) came out at 22.4 µM.
